A mixed list of measured activities; the numbers were collected in NIAID ChemDB.

All rows: growth or infection tests; organism: HIV-1; measure: EC50

Blank or dashed fields: not listed here.

SMILES	setting	cells	strain or isolate	changes	read by	result
C/C=C/CSc1cc(NC(=S)c2ccsc2C)ccc1Cl	-	CEM + CEM-SS	Costatolide-resistant (RT Y188H)	RT-Y188H	cytopathic effect / XTT	1 µM
Cc1c(C#N)cc(C(F)F)cc1Oc1c(C(F)(F)C(F)F)ncn(Cc2cc(F)c[nH]c2=O)c1=O	-	-	-	Y181C	RT activity / fluorescence	0.0158 µM
CCN[C@H]1CO[C@@H]2OCC[C@H](OC(=O)N[C@@H](Cc3ccccc3)[C@H](O)CN(CC(C)C)S(=O)(=O)c3ccc4nc(NC5CC5)sc4c3)[C@@H]21	-	MT-4	NL4-3	L10F V32I L33F M46L I54M A71V	p24 / luminescence	0.0037 µM
Cc1cn([C@H]2C[C@H](N=[N+]=[N-])[C@@H](CO)O2)c(=O)[nH]c1=O	-	CEM + CEM-SS	Calanolide A-resistant (RT T139I)	RT-T139I	XTT	0.01 µM
Nc1ccn([C@H]2CC[C@@H](CO)O2)c(=O)n1	-	HT4 + HT4 LacZ-1	RTMC (RT D67N K70R T215F K219Q)	RT-D67N K70R T215F K219Q	plaque count	0.49 µM
CC(C)CN(C[C@@H](O)[C@H](Cc1ccccc1)NC(=O)O[C@H]1CCOC1)S(=O)(=O)c1ccc(N)cc1	-	MT-4	NL4-3	L10I L33I M36I M46I I54V K55R I62V L63P A71V G73S V82T L90M I93L	p24 / luminescence	>1 µM
Nc1nc(NC2CC2)c2ncn([C@H]3C=C[C@@H](CO)C3)c2n1	-	HeLa	Recombinant	RT-A62T V118I M184V	luciferase	4.94 µM
CNc1ccc(Cl)cc1S(=O)(=O)c1ccccc1[N+](=O)[O-]	-	PBMC	ROJO	-	XTT	0.1 µM
O=c1[nH]cnc2c1ncn2[C@H]1CC[C@@H](CO)O1	-	HT4 + HT4 LacZ-1	RTMN(181 184) (RT M41L Y181C M184V T215Y)	RT-M41L Y181C M184V T215Y	plaque count	2.6 µM
Nc1nc(=O)n([C@@H]2CS[C@H](CO)O2)cc1F	-	CD4+HELA + HeLa	HXB2	-	plaque count	0.085 ± 0.007 µM
Cc1ccnc2c1NC(=O)c1cccnc1N2C1CC1	-	CEM	IIIB	-	cytopathic effect	0.019 µg/mL
CCCc1cc(=O)oc2c3c(c4c(c12)OC(C)(C)C=C4)O[C@@H](C)[C@H](C)[C@@H]3O	-	CEM + CEM-SS	TIBO R82150-resistant (RT A98G V108I)	RT-A98G V108I	XTT	1.6 µM
Cn1c2ccccc2c2c1cc(C#N)c(=O)n2-c1ccc([N+](=O)[O-])cc1	-	HeLa	NRTI resistant	RT-M41L K70R T215F K219E	luciferase	0.038 µM
CC(C)=CCOc1cc(NC(=S)c2ccsc2C)ccc1Cl	-	CEM	IIIB	RT-K103N	cytopathic effect	0.02 µg/mL
CC(C)CCC[C@@H](C)[C@H]1CC[C@H]2[C@@H]3CC[C@H]4C[C@@H](CCC=C(c5cc(Cl)c(O)c(C(=O)O)c5)c5cc(Cl)c(O)c(C(=O)O)c5)CC[C@]4(C)[C@H]3CC[C@]12C	-	CEMx174 + CEM	RF	-	p24 / RT activity	6.1 µM
C#C[C@]1(CO)O[C@@H](n2cnc3c(N)nc(F)nc32)C[C@@H]1O	-	MT4-GFP	Clinical isolate	M41L	fluorescence	0.0008 µM
CCN[C@H]1CO[C@@H]2OCC[C@H](OC(=O)N[C@@H](Cc3cccc(OC)c3)[C@H](O)CN(CC(C)C)S(=O)(=O)c3ccc4nc(NC(C)C)sc4c3)[C@@H]21	-	MT-4	NL4-3	-	p24 / luminescence	0.0027 µM
Cc1cn([C@@H]2O[C@H](CO[Si](C)(C)C(C)(C)C)C3(OS(=O)(=O)C=C3N)[C@H]2O[Si](C)(C)C(C)(C)C)c(=O)n(C)c1=O	-	CEM	IIIB	RT-E138K	cytopathic effect	>20 µg/mL
CNc1ccc(S(=O)(=O)c2ccccc2[N+](=O)[O-])cc1C	-	CEM + CEM-SS	IIIB	-	XTT	0.2 µM
Cc1ccnc2c1NC(=O)c1cccnc1N2C1CC1	-	CEM + CEM-SS	NL4-3	RT-V106I	XTT	>2 µM
CN1N=C(N)c2cn([C@@H]3O[C@H](COP(=O)(O)O)[C@@H](O)[C@H]3O)c3ncnc1c23	-	CEM + CEM-SS	C	-	XTT	0.06 µM
Cc1ccnc2c1NC(=O)c1cccnc1N2C1CC1	clinical isolate	MM + M/M	BaL	-	cytopathic effect / XTT	0.4 µM
CCc1c(Sc2ccccn2)n(COCc2ccccc2)c(=O)[nH]c1=O	-	CEM + CEM-SS	Calanolide A-resistant (RT T139I)	RT-T139I	XTT	0.01 µM
Cc1cc(=O)c2ccc(N=C=S)cc2o1	-	CEM-GFP	NL4-3	-	p24 / ELISA	0.155 µM
Cc1cn([C@H]2C[C@H](N=[N+]=[N-])[C@@H](CO)O2)c(=O)[nH]c1=O	-	HeLa	NRTI resistant	RT-M41L D67N V118I M184V L210W T215Y	luciferase	0.156 µM
CCOCn1c(Cc2ccccc2)c(C(C)C)c(=O)[nH]c1=O	-	CEM	IIIB	-	cytopathic effect	0.001 µg/mL
CC(=O)N1CCC(C(=O)N(CCCN2CCC(Cc3ccc(C(N)=O)cc3)CC2)c2ccc(C)c(Cl)c2)CC1	-	U87 (CD4+ CCR5+) + U87	R5 subtype B_6 recombinant	-	luciferase	0.007 µM
CC(C)CN(C[C@@H](O)[C@H](Cc1ccccc1)NC(=O)O[C@H]1CCO[C@H]2OCC[C@H]21)S(=O)(=O)c1ccc2nc(NC3CC3)sc2c1	-	MT-4	NL4-3	L10I L33I M36I M46I I54V K55R I62V L63P A71V G73S V82T L90M I93L	p24 / luminescence	0.038 µM
Cc1cc(C)c(Nc2ccnc(Nc3ccc(C#N)cc3)n2)c(C)c1	-	PBMC	1617-1	-	absorbance	0.0034 µM
Cc1ccnc2c1NC(=O)c1cccnc1N2C1CC1	-	CEM + CEM-SS	Oxathiin carboxanilide-resistant RT L100I	RT-L100I	cytopathic effect / XTT	0.1 µM
CC(C)[C@H](NC(=O)c1ccc2ccccc2n1)C(=O)N[C@@H](Cc1ccccc1)[C@H](O)CN1CC[C@@H](OCc2ccncc2)C[C@H]1C(=O)NC(C)(C)C	-	C8166	AZTR	-	p24 / ELISA / antigen	0.015 µM
Nc1nc(=O)n([C@@H]2CS[C@H](CO)O2)cc1F	-	TZM-gfp	NL4-3	A502V	GFP	0.44 µM
CO[P@](=O)(c1cc(C)cc(/C=C/C#N)c1)c1c(C(N)=O)[nH]c2ccc(Cl)c(F)c12	-	PBMC	-	K103N	-	0.0007 µM
Nc1ccn([C@H]2C=C[C@@H](CO)O2)c(=O)n1	-	CD4+HELA + HeLa	HXB2 FTC-P5 (RT V75T)	RT-V75T	plaque count	1.5 µM
Cc1cc(S(N)(=O)=O)ccc1NC(=O)COc1ccc(Cl)cc1C(=O)c1cc(Cl)cc(C#N)c1	-	MAGI	NNRTI-resistant (RT V108I)	RT-V108I	β-galactosidase	0.0009 µM
CN[C@H]1CO[C@@H]2OCC[C@H](OC(=O)N[C@@H](Cc3cccc(OC)c3)[C@H](O)CN(CC(C)C)S(=O)(=O)c3ccc4nc(NC(C)C)sc4c3)[C@@H]21	-	MT-4	NL4-3	L10F M46I I54V V82A	p24 / luminescence	0.026 µM
CCCN(C)C(=O)Oc1nsnc1-c1c(Cl)ccc(N)c1Cl	-	MAGI	IIIB	RT-K103N	MTT	0.045 µM
COc1ccc(S(=O)(=O)N(CC(C)C)C[C@@H](O)[C@H](Cc2ccccc2)NC(=O)O[C@H]2CO[C@H]3O[C@@H]4OCC[C@@H]4[C@H]32)cc1	-	MT-4	NL4-3	L10F V32I M46I I54M A71V I84V	p24 / luminescence	0.038 µM
Cc1occc1C(=S)Nc1ccc(Cl)c(/C=N/OC(C)(C)C)c1	-	CEM + CEM-SS	NL4-3 (RT V179D)	RT-V179D	cytopathic effect / XTT	0.7 µM
Cc1ccnc2c1NC(=O)c1cccnc1N2C1CC1	-	C8166	IIIB	DB-R	p24 / ELISA	>400 µM
CC(C)CN(C[C@@H](O)[C@H](Cc1ccccc1)NC(=O)O[C@H]1CCOC1)S(=O)(=O)c1ccc(N)cc1	-	PBMC	92UG037	-	p24 / luminescence	0.051 µM
CCCc1cc(=O)oc2c3c(c4c(c12)OC(C)(C)C=C4)O[C@H](C)[C@@H](C)[C@@H]3O	-	CEM + CEM-SS	NL4-3	RT-V179D	XTT	0.05 µM
CC(C)CN(C[C@@H](O)[C@H](Cc1ccc(F)cc1)NC(=O)O[C@H]1CCO[C@H]2OCC[C@H]21)S(=O)(=O)c1ccc2nc(NC(C)C)sc2c1	-	PBMC	BaL	-	p24 / luminescence	0.0009 µM
CC(C)CN(C[C@@H](O)[C@H](Cc1ccccc1)NC(=O)O[C@H]1CCOC1)S(=O)(=O)c1ccc(N)cc1	-	PBMC	ERS104pre	-	p24 / luminescence	0.0338 µM
Cc1cc(C#N)cc(C)c1Oc1nc(Nc2ccc(C#N)cc2)nc(N)c1Br	-	PBMC	92UG029	-	absorbance	0.0034 µM
COc1ccc(S(=O)(=O)N(CC(C)C)C[C@@H](O)[C@H](Cc2ccccc2)NC(=O)O[C@H]2CO[C@@H]3O[C@H]4OCC[C@H]4[C@@H]32)cc1	-	MT-4	NL4-3	L23I E43Q K43I M46I I50L G51A L63P A71V V82A T91A	p24 / luminescence	0.3769 µM
CC[C@H](C)[C@@H](C(=O)O)n1sc2ccccc2c1=O	-	MT-4	LAV-Bru	-	p24 / RT activity	3.2 µM

Again, the opening 5 rows:

SMILES	setting	cells	strain or isolate	changes	read by	result
C/C=C/CSc1cc(NC(=S)c2ccsc2C)ccc1Cl	-	CEM + CEM-SS	Costatolide-resistant (RT Y188H)	RT-Y188H	cytopathic effect / XTT	1 µM
Cc1c(C#N)cc(C(F)F)cc1Oc1c(C(F)(F)C(F)F)ncn(Cc2cc(F)c[nH]c2=O)c1=O	-	-	-	Y181C	RT activity / fluorescence	0.0158 µM
CCN[C@H]1CO[C@@H]2OCC[C@H](OC(=O)N[C@@H](Cc3ccccc3)[C@H](O)CN(CC(C)C)S(=O)(=O)c3ccc4nc(NC5CC5)sc4c3)[C@@H]21	-	MT-4	NL4-3	L10F V32I L33F M46L I54M A71V	p24 / luminescence	0.0037 µM
Cc1cn([C@H]2C[C@H](N=[N+]=[N-])[C@@H](CO)O2)c(=O)[nH]c1=O	-	CEM + CEM-SS	Calanolide A-resistant (RT T139I)	RT-T139I	XTT	0.01 µM
Nc1ccn([C@H]2CC[C@@H](CO)O2)c(=O)n1	-	HT4 + HT4 LacZ-1	RTMC (RT D67N K70R T215F K219Q)	RT-D67N K70R T215F K219Q	plaque count	0.49 µM

ECn is the concentration giving n% inhibition of infection, replication or growth. Lines come from different laboratories, so protocols vary.